In article PMC5404824, “Engineering Nucleotide Specificity of Succinyl-CoA Synthetase in Blastocystis: The Emerging Role of Gatekeeper Residues” (Biochemistry, 2016) one finds Km, kcat and kcat/Km data, which are given here for two substances.

In this data set the test system is Nc1ncnc2c1ncn2[C@@H]1O[C@H](COP(=O)(O)OP(=O)(O)OP(=O)(O)O)[C@@H](O)[C@H]1O. Put plainly: purified protein. Particulars: 129 μM CoA, 10 mM succinate, 50 mM KCl, 10 mM MgCl2, 50 mM Tris-HCl pH 7.4, 30 nM enzyme.
The mark [1] stands for this setting: Km above highest substrate concentration used (Figure 5 legend).

As for “Blastocystis SCS (succinyl-CoA synthetase, SCSα + SCSβ) (Blastocystis sp. ATCC 50177/Nand II; K128D/K60E)”, the Km turned out to be 230 ± 34 µM, the kcat came to 0.0176 s⁻¹ and the kcat/Km turned out to be 76 M⁻¹ s⁻¹.

For the substance “Blastocystis SCS (succinyl-CoA synthetase, SCSα + SCSβ) (Blastocystis sp. ATCC 50177/Nand II; L241F/V127L)”, under setting [1], the Km stood at 265 ± 50 µM, the kcat was found to be 0.0177 s⁻¹ and the kcat/Km was 66 M⁻¹ s⁻¹.

By Km is commonly meant the substrate concentration at which the rate is half of its maximum. The kcat is the number of substrate molecules converted per active site and unit of time at saturation. One may read the kcat/Km as the second-order rate constant that governs catalysis at low substrate concentration.
